Drawing on ChEMBL document CHEMBL5038580 (J Med Chem, 2022), this text covers IC50 and CC50 for two molecules.

Data set [1] deals with Middle East respiratory syndrome-related coronavirus. Kind of data set: Antiviral activity against MERS-CoV assessed as inhibition of S protein mediated cell-cell fusion in Huh-7 cells measured after 2 hrs by inverted fluorescence microscopy.
The next data set concerns RD. Kind of data set: Cytotoxicity against human RD cells incubated for 48 hrs by CCK-8 assay. (In general: Formazan colour is commonly taken as a measure of viable cells.)
In a further data set the test system is MT2. Kind of data set: Cytotoxicity against human MT2 cells incubated for 48 hrs by CCK-8 assay. To be noted: mt2, 48 h.

`CC[C@H](C)[C@H](NC(=O)[C@H](Cc1ccc(O)cc1)NC(=O)[C@H](CO)NC(=O)[C@H](CCC(=O)O)NC(=O)[C@H](CCC(=O)O)NC(=O)[C@H](CC(C)C)NC(=O)[C@H](CCCCN)NC(=O)[C@H](CCCCN)NC(=O)[C@@H](NC(=O)[C@@H](NC(=O)[C@H](CCC(=O)O)NC(=O)[C@H](CCC(=O)O)NC(=O)[C@H](CC(C)C)NC(=O)[C@H](CCCCN)NC(=O)[C@H](CCCCN)NC(=O)[C@H](CCSC)NC(=O)[C@H](CCC(=O)O)NC(=O)[C@H](Cc1ccc(O)cc1)NC(=O)[C@H](CCC(=O)O)NC(=O)[C@H](CC(C)C)NC(=O)[C@H](CC(=O)O)NC(=O)[C@H](CC(C)C)NC(=O)[C@H](CC(C)C)NC(=O)[C@@H](NC(=O)[C@@H](NC(=O)[C@H](CC(N)=O)NC(=O)[C@@H](NC(=O)[C@H](CCC(N)=O)NC(=O)[C@@H](NC(=O)[C@H](CC(C)C)NC(=O)[C@H](CO)NC(C)=O)[C@@H](C)O)[C@@H](C)CC)[C@@H](C)O)[C@@H](C)O)C(C)C)C(C)C)C(=O)N[C@@H](CC(=O)O)C(=O)N[C@@H](CC(C)C)C(=O)N[C@@H](CCCCN)C(=O)N[C@@H](CCC(=O)O)C(=O)N[C@@H](CC(C)C)C(N)=O`: the IC50 in data set [1] is 0.85 µM.
On to `CC[C@H](C)[C@H](NC(C)=O)C(=O)N[C@@H](CCC(=O)O)C(=O)N[C@@H](CCC(=O)O)C(=O)N[C@H](C(=O)N[C@H](C(=O)N[C@@H](CCCCN)C(=O)N[C@@H](CCCCN)C(=O)N[C@H](C(=O)N[C@@H](Cc1c[nH]cn1)C(=O)N[C@@H](Cc1c[nH]cn1)C(=O)N[C@H](C(=O)N[C@@H](CCC(=O)O)C(=O)N[C@@H](CCCNC(=N)N)C(=O)N[C@@H](C)C(=O)N[C@H](C(=O)N[C@@H](CCC(=O)O)C(=O)N[C@@H](C)C(=O)N[C@@H](CCC(N)=O)C(=O)N[C@@H](CCC(N)=O)C(=O)N[C@@H](CCCCN)C(=O)N[C@@H](CC(C)C)C(=O)N[C@@H](CC(C)C)C(=O)N[C@@H](CCC(N)=O)C(=O)N[C@@H](CC(C)C)C(=O)N[C@H](C(=O)N[C@H](C(=O)N[C@@H](Cc1c[nH]c2ccccc12)C(=O)NCC(=O)N[C@H](C(=O)N[C@@H](CCCCN)C(=O)N[C@@H](CCC(N)=O)C(=O)N[C@@H](CC(C)C)C(=O)N[C@@H](CCC(N)=O)C(=O)N[C@@H](C)C(=O)N[C@@H](CCCNC(=N)N)C(=O)N[C@H](C(=O)N[C@@H](CC(C)C)C(N)=O)[C@@H](C)CC)[C@@H](C)CC)C(C)C)[C@@H](C)O)[C@@H](C)CC)[C@@H](C)CC)[C@@H](C)CC)C(C)C)[C@@H](C)CC`, for which the results for the CC50 with RD and with MT2 were more than 40 µM and more than 10 µM, respectively. The IC50 in data set [1] was more than 20 µM.

The IC50 is the point on the concentration scale where inhibition reaches its midpoint. By CC50 is commonly meant the concentration giving 50% cytotoxicity. Low values mean greater toxicity to the cells, high ones lower toxicity to the cells.
